Measured values from several laboratories, pooled; numbers as filed in NIAID ChemDB.

Shared fields: growth or infection tests; organism: HIV-1; method: syncytia; endpoint: EC50

Lines come from different laboratories, so protocols vary. Blank or dashed fields: not listed here. ECn: concentration that inhibits the pathogen or its effect by n%.

compound,changes,strain or isolate,cell line,value
Cc1cn([C@@H]2O[C@H](CC3CCCCC3)C3(OS(=O)(=O)C=C3N)[C@H]2OC(=O)c2ccccc2)c(=O)[nH]c1=O,-,IIIB,CEM,>4 µg/mL
O=Cc1ccc(B(O)O)cc1,-,IIIB,CEM,>50 µM
Cc1cn([C@@H]2O[C@H](CO[Si](C)(C)C(C)(C)C)[C@@]3(OS(=O)(=O)C=C3N)[C@H]2O[Si](C)(C)C(C)(C)C)c(=O)[nH]c1=O,RT-K103N,IIIB TIBO R82913 STR-2 (RT K103N),CEM,0.2 µM
NCC(O)c1ccc(O)c(O)c1,-,IIIB,CEM,9 µg/mL
O=C(OCc1ccccc1)N(CCCCCN1CCCN(CCCCCN(Cc2ccccc2)C(=O)OCc2ccccc2)CCCN(CCCCCN(Cc2ccccc2)C(=O)OCc2ccccc2)CCN(CCCCCN(Cc2ccccc2)C(=O)OCc2ccccc2)CCC1)Cc1ccccc1,-,LAV,MT-4,>1 µM
Cc1cn([C@H]2C[C@H](N=[N+]=[N-])[C@@H](CO)O2)c(=O)[nH]c1=O,RT-L100I,IIIB TIBO R82150-resistant (RT L100I),CEM,0.003 µM
CC(C)=CCOc1cc(NC(=S)c2ccsc2C)ccc1Cl,RT-V179D,IIIB,CEM,0.012 ± 0.008 µM
O=c1c(-c2ccc(O)cc2)coc2cc(OCc3ccc(F)cc3)cc(O)c12,-,IIIB,C8166,22 µg/mL
CC(C)=CCOc1cc(NC(=S)c2ccoc2C)ccc1Cl,RT-L100I,IIIB,CEM,0.035 ± 0.009 µM
O=c1[nH]cnc2c1ncn2[C@H]1CC[C@@H](CO)O1,RT-L100I Y188H,IIIB TIBO R82913 STR-B22 (RT L100I Y188H),CEM,8 µM
O=c1[nH]cnc2c1ncn2[C@H]1CC[C@@H](CO)O1,-,IIIB,CEM,1.8 µg/mL
CCCCCCCCCCCCCCCCCCCCCCOCCCOP(=O)(O)C(=O)O,-,-,HT4 + HT4-6C,0.4 µM
C1CNCCCNCCNCCCNC1,-,LAV,MT-4,10 µM
C=CCN(/C=C/c1ccccc1Br)C(C)=O,-,IIIB,C8166,75 µM
Cc1cn([C@H]2C[C@H](N=[N+]=[N-])[C@@H](COC(=O)C(=O)N3CCCC3C(=O)N[C@H](Cc3ccccc3)C(=O)OCc3ccccc3)O2)c(=O)[nH]c1=O,-,IIIB,MOLT-4 (HIV-1 IIIB) / M8166 + MOLT-4,>150 µM
COc1cc(O)c2c(c1)C(=O)c1c(cc3c(c1O)-c1c(cc(C)c(C(=O)N[C@H](C)C(=O)O)c1O)[C@H](O[C@@H]1O[C@H](C)[C@H](O)[C@H](O[C@@H]4OC[C@@H](O)[C@H](O)[C@H]4O)[C@H]1O)[C@H]3O)C2=O,-,IIIB,MOLT-4,<10 µg/mL
CCCCCCCCCCCCCCCCCCOCCCOP(=O)(O)C(=O)O,-,-,HT4 + HT4-6C,1 µM
Cc1cn([C@@H]2O[C@@H](CO[Si](C)(C)C(C)(C)C)C3(OS(=O)(=O)C=C3N)[C@@H]2O[Si](C)(C)C(C)(C)C)c(=O)[nH]c1=O,-,IIIB,CEM,>20 µg/mL
Cc1cn([C@@H]2O[C@H](CO[Si](C)(C)C(C)(C)C)C3(OS(=O)(=O)C=C3N)[C@H]2O[Si](C)(C)C(C)(C)C)c(=O)n(CC(=O)N[C@@H](C)C(=O)O)c1=O,-,IIIB,CEM,5.5 µM
Nc1nc2c(ncn2[C@H]2CC[C@@H](CO)O2)c(=O)[nH]1,RT-L100I E138K,IIIB TIBO R82913 STR-B02 (RT L100I E138K),CEM,0.7 µM
Cc1cn([C@H]2C[C@H](N=[N+]=[N-])[C@@H](COP(=O)(O)OCc3ccc(C(=O)OC(C)C)cc3)O2)c(=O)[nH]c1=O,-,IIIB,C8166,0.016 µM
C[C@@H]1CN2CCC[C@@H]3CCCCC[C@@H]4C(=O)[C@@H](C)CN5CCC[C@@H](CCCCC[C@@H](C1=O)[C@H]32)[C@H]45,-,MN,MT-2,36.1 µM
O=C(NCCCCCCN1CCCN(CCCCCCNC(=O)OCc2ccccc2)CCCN(CCCCCCNC(=O)OCc2ccccc2)CCN(CCCCCCNC(=O)OCc2ccccc2)CCC1)OCc1ccccc1,-,LAV,MT-4,>1 µM
Cc1cn([C@H]2C[C@H](N=[N+]=[N-])[C@@H](COP(=O)(OCc3ccc(C(=O)OC(C)(C)C)cc3)OCc3ccc(C(=O)OC(C)(C)C)cc3)O2)c(=O)[nH]c1=O,-,GB8,JM,1 µM
CC(=O)N(/C=C/c1ccccc1Br)C(C)=O,-,IIIB,C8166,8 µM
COC(=O)CCc1cccc2c1OP(=O)(OC[C@@H]1C=C[C@H](n3cc(C)c(=O)[nH]c3=O)O1)OC2,-,IIIB,CEM + CEM/O,0.09 µM
CCn1c(=O)c(C)cn([C@@H]2O[C@H](CO[Si](C)(C)C(C)(C)C)C3(OS(=O)(=O)C=C3N)[C@H]2O[Si](C)(C)C(C)(C)C)c1=O,-,IIIB,CEM,0.09 µM
Cc1cn([C@@H]2O[C@H](CO[Si](C)(C)C(C)(C)C)C3(OS(=O)(=O)C=C3N)[C@H]2O[Si](C)(C)C(C)(C)C)c(=O)n(CC(=O)N[C@@H](CC(=O)O)C(=O)O)c1=O,-,IIIB,CEM,6.7 µM
CCOC(=O)c1ccc(COP(=O)(OCc2ccc(C(=O)OCC)cc2)OC[C@H]2O[C@@H](n3cc(C)c(=O)[nH]c3=O)C[C@@H]2N=[N+]=[N-])cc1,-,IIIB,C8166,0.08 µM
Cc1cn([C@@H]2O[C@H](CO[Si](C)(C)C(C)(C)C)C3(OS(=O)(=O)C=C3N)[C@H]2O[Si](C)(C)C(C)(C)C)c(=O)n(C)c1=O,RT-L100I E138K,IIIB TIBO R82913 STR-B02 (RT L100I E138K),CEM,>50 µM
Nc1ccn([C@H]2CC[C@@H](CO)O2)c(=O)n1,-,IIIB,CEM,0.04 µg/mL
CCCCCCCCCCCCCOCCCOP(=O)(O)C(=O)O,-,-,HT4 + HT4-6C,7.2 µM
Nc1ncnc2c1ncn2CC(CF)OCP(=O)(O)O,-,IIIB,CEM,9 µM
Cc1cn([C@H]2C=C[C@@H](CO)O2)c(=O)[nH]c1=O,-,IIIB,CEM + CEM/O,0.23 µM
Cc1cn([C@@H]2O[C@H](C)C3(OS(=O)(=O)C=C3N)[C@H]2O[Si](C)(C)C(C)(C)C)c(=O)[nH]c1=O,-,IIIB,CEM,>20 µg/mL
COC(=O)[C@@H](C)NC(=O)c1c(C)cc2c(c1O)-c1c(cc3c(c1O)C(=O)c1cc(OC)cc(O)c1C3=O)[C@H](O)[C@H]2O[C@@H]1O[C@H](C)[C@H](N)[C@H](O[C@@H]2OC[C@@H](O)[C@H](O)[C@H]2O)[C@H]1O,-,IIIB,MOLT-4,<30 µg/mL
COC(=O)[C@H](C)NP(=O)(OC[C@@H]1C=C[C@H](n2cnc3c(N)ncnc32)O1)Oc1ccccc1,-,IIIB,MT-4,0.007 µM
O=C(CC[C@H]1C(=O)OCN1C(=O)OCc1ccccc1)Nc1ccc(B(O)O)cc1,-,IIIB,CEM,>50 µM
CCN(/C=C/c1ccccc1Br)C(C)=O,-,IIIB,C8166,48 µM
CC(C)=CCN1Cc2cc(Cl)cc3[nH]c(=S)n(c23)C[C@@H]1C,RT-M41L T215Y,HXB2,CEM,0.065 µg/mL
OB(O)c1ccccc1COc1c(F)cccc1F,-,IIIB,CEM,>50 µM
Nc1ccn([C@H]2CC[C@@H](CO)O2)c(=O)n1,RT-M41L T215Y,HXB2,CEM,0.038 µg/mL
O=Cc1ccccc1B(O)O,-,IIIB,CEM,>50 µM
COC(=O)c1cc(O)c(O)c(O)c1,-,IIIB,CEM,2 µg/mL
CC(=O)O[C@@H]1[C@H](n2cc(C)c(=O)[nH]c2=O)O[C@@H](COC(=O)c2ccccc2)C12OS(=O)(=O)C=C2N,-,IIIB,CEM,31 µg/mL
CCOCn1c(Cc2cc(C)cc(C)c2)c(CC)c(=O)[nH]c1=O,-,IIIB,CEM,0.009 µM
Cc1cn([C@H]2C[C@H](N=[N+]=[N-])[C@@H](COP(=O)(O)OCc3ccc(C(=O)OC(C)(C)C)cc3)O2)c(=O)[nH]c1=O,-,IIIB,C8166,0.016 µM
Cc1cn([C@H]2C[C@H](F)[C@@H](CO)O2)c(=O)[nH]c1=O,-,IIIB,CEM,0.0006 µg/mL
NCCCN1CCCN(CCCN)CCCN(CCCN)CCN(CCCN)CCC1,-,LAV,MT-4,10 µM
CC(=O)N(/C=C/c1ccccc1Br)Cc1ccccc1,-,IIIB,C8166,9 µM
CCCOC(=O)c1cc(O)c(O)c(O)c1,-,IIIB,CEM,2.7 µg/mL
O=c1[nH]cnc2c1ncn2[C@H]1CC[C@@H](CO)O1,RT-E138K,IIIB,CEM,15 µM
OB(O)c1ccccc1OCc1ccc(I)cc1,-,IIIB,CEM,>50 µM
CC(=O)OC[C@H]1O[C@@H](n2cc(C)c(=O)[nH]c2=O)C[C@@H]1N(C)OC(C)=O,-,IIIB,CEM,>250 µg/mL
Cc1cn([C@@H]2O[C@H](CO[Si](C)(C)C(C)(C)C)[C@@]3(OS(=O)(=O)C=C3N)[C@H]2O[Si](C)(C)C(C)(C)C)c(=O)[nH]c1=O,RT-E138K,IIIB,CEM,6.2 µM
CC(=O)N(/C=C/c1ccccc1Br)Cc1cc(F)cc(F)c1,-,IIIB,C8166,4 µM
O=c1[nH]cccc1O,-,IIIB,CEM,17 µg/mL
O=C(NC1CC1)c1ccc(B(O)O)cc1,-,IIIB,CEM,>250 µM
O=c1[nH]cnc2c1ncn2[C@H]1CC[C@@H](CO)O1,-,IIIB,C8166,12 µM
O=C(OC[C@@H]1CC[C@H](n2cnc3c(=O)[nH]cnc32)O1)C(=O)N1CCCC1C(=O)N[C@H](Cc1ccccc1)C(=O)OCc1ccccc1,-,IIIB,MOLT-4 (HIV-1 IIIB) / M8166 + MOLT-4,>150 µM
CCOC(=O)c1ccc(COP(=O)(O)OC[C@H]2O[C@@H](n3cc(C)c(=O)[nH]c3=O)C[C@@H]2N=[N+]=[N-])cc1,-,IIIB,C8166,0.032 µM
O=C(O)P(=O)(O)O,-,-,HT4 + HT4-6C,135 µM
C1CNCCNCCCNCCNC1,-,LAV,MT-4,10 µM
COC(=O)C(=O)N1CCC[C@H]1C(=O)N[C@@H](Cc1ccccc1)C(=O)OCc1ccccc1,-,IIIB,MOLT-4 (HIV-1 IIIB) / M8166 + MOLT-4,>150 µM
CC(C)Nc1cccnc1N1CCN(C(=O)c2cc3cc(NS(C)(=O)=O)ccc3[nH]2)CC1,RT-M41L T215Y,HXB2,CEM,0.013 µg/mL
Cc1occc1C(=S)Nc1ccc(Cl)c(/C=N/OC(C)(C)C)c1,RT-L100I,IIIB,CEM,0.24 ± 0.05 µM
NCCCCCCN1CCCN(CCCCCCN)CCN(CCCCCCN)CCCN(CCCCCCN)CC1,-,LAV,MT-4,>50 µM
CC(C)=CCN1Cc2cc(Cl)cc3[nH]c(=S)n(c23)C[C@@H]1C,RT-E138K,IIIB,CEM,0.63 µM
O=C(OC[C@@H]1CC[C@H](n2ccc(=O)[nH]c2=O)O1)C(=O)N1CCCC1C(=O)N[C@H](Cc1ccccc1)C(=O)OCc1ccccc1,-,IIIB,MOLT-4 (HIV-1 IIIB) / M8166 + MOLT-4,>150 µM
O=C(O)P(=O)(O)O,-,LAI-VIRAL CLONE,HT4LACZ-1 + HT4 LacZ-1,38 µM
COc1ccc(C=O)cc1B(O)O,-,IIIB,CEM,≥250 µM
COc1ccc(/C=C/N(C)C(C)=O)c(OC)c1,-,IIIB,C8166,32 µM

For reference, 6 entries again:

{"compound": "CC(C)=CCOc1cc(NC(=S)c2ccsc2C)ccc1Cl", "changes": "RT-V179D", "strain or isolate": "IIIB", "cell line": "CEM", "value": "0.012 ± 0.008 µM"}
{"compound": "NCC(O)c1ccc(O)c(O)c1", "strain or isolate": "IIIB", "cell line": "CEM", "value": "9 µg/mL"}
{"compound": "CCN(/C=C/c1ccccc1Br)C(C)=O", "strain or isolate": "IIIB", "cell line": "C8166", "value": "48 µM"}
{"compound": "COC(=O)[C@@H](C)NC(=O)c1c(C)cc2c(c1O)-c1c(cc3c(c1O)C(=O)c1cc(OC)cc(O)c1C3=O)[C@H](O)[C@H]2O[C@@H]1O[C@H](C)[C@H](N)[C@H](O[C@@H]2OC[C@@H](O)[C@H](O)[C@H]2O)[C@H]1O", "strain or isolate": "IIIB", "cell line": "MOLT-4", "value": "<30 µg/mL"}
{"compound": "Cc1cn([C@H]2C[C@H](N=[N+]=[N-])[C@@H](CO)O2)c(=O)[nH]c1=O", "changes": "RT-L100I", "strain or isolate": "IIIB TIBO R82150-resistant (RT L100I)", "cell line": "CEM", "value": "0.003 µM"}
{"compound": "O=c1[nH]cnc2c1ncn2[C@H]1CC[C@@H](CO)O1", "changes": "RT-E138K", "strain or isolate": "IIIB", "cell line": "CEM", "value": "15 µM"}